Pooled drug test results. Numbers come from NIAID ChemDB, via PubChem.

All rows: growth or infection tests; organism: Candida krusei

An empty or dashed field is not shown. A number after MIC or MFC names an inhibition level or a share of isolates. Inhibition is in % at the dose shown (toxicity tests: loss of growth or viability). ECn: concentration that inhibits the pathogen or its effect by n%. Rows are shuffled and stem from different studies.

{"structure": "C[C@@H](N1CCN(Cc2cn(Cc3ccc(F)cc3F)c3cc(N=[N+]=[N-])ccc23)CC1)[C@](O)(Cn1cncn1)c1ccc(F)cc1F", "method": "resazurin", "measure": "MIC80", "strain or isolate": "ATCC 6258", "result": "1 µg/mL"}
{"structure": "Clc1ccc(C(c2ccccc2)n2nnc3ccccc32)cc1", "method": "agar", "measure": "MIC90", "result": ">256 µg/mL"}
{"structure": "CC(C)CC(O)C(=O)O", "method": "broth dilution / visual reading", "measure": "MFC100", "strain or isolate": "ATCC 6258", "result": "72000 µg/mL"}
{"structure": "CCCc1ccc(NS(=O)(=O)c2ccc(CN(C)CC(O)(Cn3cncn3)c3ccc(F)cc3F)cc2)cc1", "method": "resazurin", "measure": "MIC", "strain or isolate": "8", "result": "1.8 µg/mL"}
{"structure": "CCC(C)CC(C)CCCCCCCCC(=O)N[C@H]1C[C@@H](O)[C@H](NCCN)NC(=O)[C@@H]2[C@@H](O)CCN2C(=O)[C@H]([C@H](O)CCN)NC(=O)[C@H]([C@H](O)[C@@H](O)c2ccc(O)cc2)NC(=O)[C@@H]2C[C@@H](O)CN2C(=O)[C@H]([C@@H](C)O)NC1=O", "method": "broth dilution", "measure": "MIC50", "strain or isolate": "ATCC 4363", "result": "0.25 µg/mL"}
{"structure": "C[C@@H](N1CCN(Cc2cn(-c3ccc(F)cc3)c3ccccc23)CC1)[C@](O)(Cn1cncn1)c1ccc(F)cc1F", "method": "resazurin", "measure": "MIC80", "strain or isolate": "ATCC 6258", "result": "0.5 µg/mL"}
{"structure": "CN(CC(=O)Nc1ccc(Br)cc1)CC(O)(Cn1cncn1)c1ccc(F)cc1F", "measure": "MIC80", "result": "16 µg/mL"}
{"structure": "CCCCCCCCn1cc[n+](COCCCCCOC[n+]2ccn(CCCCCCCC)c2)c1", "method": "agar diffusion", "measure": "MIC100", "strain or isolate": "ATCC 6258", "result": "142 µM"}
{"structure": "CCCCCOc1ccc(-c2cc(-c3ccc(C(=O)N[C@H]4C[C@@H](O)[C@@H](O)NC(=O)[C@@H]5[C@@H](O)[C@@H](C)CN5C(=O)[C@H]([C@H](O)CC(N)=O)NC(=O)[C@H]([C@H](O)[C@@H](O)c5ccc(O)c(OS(=O)(=O)O)c5)NC(=O)[C@@H]5C[C@@H](O)CN5C(=O)[C@H]([C@@H](C)O)NC4=O)cc3)no2)cc1", "method": "broth dilution", "measure": "MIC50", "result": "0.06 µg/mL"}
{"structure": "C[C@@H](N1CCN(Cc2cn(Cc3ccc(Cl)cc3)c3c(F)cccc23)CC1)[C@](O)(Cn1cncn1)c1ccc(F)cc1F", "method": "resazurin", "measure": "MIC80", "strain or isolate": "ATCC 6258", "result": "1 µg/mL"}
{"structure": "CCCCCCCCCCCn1cc[n+](COCCCCCCOC[n+]2ccn(CCCCCCCCCCC)c2)c1", "method": "agar diffusion", "measure": "MIC100", "strain or isolate": "ATCC 6258", "result": "2 µM"}
{"structure": "Cc1ccc(NC(=O)CN(C)CC(O)(Cn2cncn2)c2ccc(F)cc2F)cc1C", "measure": "MIC80", "result": "4 µg/mL"}
{"structure": "c1ccc(C(c2ccccc2)n2cnc3ccccc32)cc1", "method": "broth dilution", "measure": "MFC", "result": ">256 µg/mL"}
{"structure": "C[C@@H](N1CCN(Cc2cn(Cc3ccc(Cl)cc3)c3ccccc23)CC1)[C@](O)(Cn1cncn1)c1ccc(F)cc1F", "method": "resazurin", "measure": "MIC80", "strain or isolate": "ATCC 6258", "result": "1 µg/mL"}
{"structure": "Cc1ccc(NC(=O)CN(C)CC(O)(Cn2cncn2)c2ccc(F)cc2F)c(C)c1", "measure": "MIC80", "result": "4 µg/mL"}
{"structure": "C/C(C=O)=C\\c1ccccc1", "method": "agar diffusion", "measure": "MIC90", "strain or isolate": "ATCC 6258", "result": "400 µM"}
{"structure": "C[C@@H]1CC(=O)N(c2ccccc2)C1=O", "method": "broth dilution / turbidity", "measure": "MIC", "strain or isolate": "CCC 117-2000", "result": "62.5 µg/mL"}
{"structure": "O/N=C/c1cc[n+](Cc2ccc(C[n+]3ccc(/C=N/O)cc3)s2)cc1.[Cl-].[Cl-]", "method": "broth dilution", "measure": "EC50", "result": ">20 µg/mL"}
{"structure": "COc1cc(C2=C(c3ccc(F)cc3)COC2=O)ccc1OCC(O)(Cn1cncn1)c1ccc(F)cc1F", "method": "broth dilution", "measure": "MIC50", "strain or isolate": "ATCC 6258", "result": "16 µg/mL"}
{"structure": "CC(C)CC(=O)C(=O)O", "method": "broth dilution", "measure": "MFC100", "strain or isolate": "ATCC 6258", "result": ">72000 µg/mL"}
{"structure": "CC(C)(O)c1cn(-c2ccc3ccccc3c2)nn1", "method": "broth dilution", "measure": "inhibition", "strain or isolate": "URM 1059", "dose": "2048 µg/mL", "result": "0%"}
{"structure": "C[C@@H](c1ncncc1F)[C@](O)(Cn1cncn1)c1ccc(F)cc1F", "method": "broth dilution", "measure": "MIC50", "result": "0.25 µg/mL"}
{"structure": "C[C@H]1[C@H](O)[C@@H](C)/C=C/C=C/C=C/C=C/C=C/C=C/C=C/[C@H](O[C@@H]2O[C@H](C)[C@@H](O)[C@H](N)[C@@H]2O)C[C@@H]2O[C@](O)(C[C@@H](O)C[C@@H](O)CC[C@H](O)[C@@H](O)C[C@@H](O)CC(=O)O[C@H]1C)C[C@H](O)[C@H]2C(=O)O", "method": "visual reading", "measure": "MFC", "strain or isolate": "Clinical isolate", "result": "2 µg/mL"}
{"structure": "C[C@@H]1C(=O)N(c2ccccc2)C(=O)[C@@H]1C", "method": "broth dilution / turbidity", "measure": "MIC", "strain or isolate": "CCC 117-2000", "result": "62.5 µg/mL"}
{"structure": "C=CCc1ccc(O)c(OC)c1", "method": "turbidity", "measure": "MIC90", "strain or isolate": "342", "result": "500 µg/mL"}
{"structure": "c1ccc(C(c2ccccc2)n2ccnc2)cc1", "method": "broth dilution", "measure": "MFC", "result": "2 µg/mL"}
{"structure": "NC(Cc1ccccc1)C(=O)NC(CC1C=Cc2ccccc21)C(=O)NC(CS)C(=O)O", "method": "broth dilution", "measure": "MFC", "strain or isolate": "ATCC 6258", "result": "719 µg/mL"}
{"structure": "CN(Cc1ccc(S(=O)(=O)Nc2ccccc2)cc1)CC(O)(Cn1cncn1)c1ccc(F)cc1F", "method": "resazurin", "measure": "MIC", "strain or isolate": "506", "result": "1.6 µg/mL"}
{"structure": "C[C@H]1[C@H](O)[C@@H](C)/C=C/C=C/C=C/C=C/C=C/C=C/C=C/[C@H](O[C@@H]2O[C@H](C)[C@@H](O)[C@H](N)[C@@H]2O)C[C@@H]2O[C@](O)(C[C@@H](O)C[C@@H](O)CC[C@H](O)[C@@H](O)C[C@@H](O)CC(=O)O[C@H]1C)C[C@H](O)[C@H]2C(=O)O", "method": "broth dilution", "measure": "MIC100", "result": "5 µg/mL"}
{"structure": "CCCCCCCCn1cc[n+](COCCOC[n+]2ccn(CCCCCCCC)c2)c1", "method": "agar diffusion", "measure": "MIC100", "strain or isolate": "ATCC 6258", "result": "10 µM"}
{"structure": "Cc1ccc(-c2c3c(N)c4c(nc3nc3c2c(C)nn3-c2ccccc2)CCC4)cc1", "method": "broth dilution / absorbance", "measure": "MIC100", "strain or isolate": "CCC 117", "result": "125 µg/mL"}
{"structure": "C[C@@H]1CC(=O)N(c2ccc(Br)cc2)C1=O", "method": "broth dilution / turbidity", "measure": "MIC", "strain or isolate": "CCC 117-2000", "result": "62.5 µg/mL"}
{"structure": "CCCCCCCCCCCCn1cc[n+](COCCCCCOC[n+]2ccn(CCCCCCCCCCCC)c2)c1", "method": "agar diffusion", "measure": "MIC100", "strain or isolate": "ATCC 6258", "result": "4 µM"}
{"structure": "CN(Cc1ccc(S(=O)(=O)NC(C)(C)C)cc1)CC(O)(Cn1cncn1)c1ccc(F)cc1F", "method": "resazurin", "measure": "MIC", "strain or isolate": "8", "result": "1 µg/mL"}
{"structure": "O/N=C/c1cccc[n+]1Cc1ccc(C[n+]2ccccc2/C=N/O)s1.[Cl-].[Cl-]", "method": "broth dilution", "measure": "EC50", "result": ">20 µg/mL"}
{"structure": "Cc1ccc(-c2c3c(N)c4c(nc3nc3c2c(C)nn3-c2ccccc2)CCCCC4)cc1", "method": "broth dilution / absorbance", "measure": "MIC100", "strain or isolate": "CCC 117", "result": "125 µg/mL"}
{"structure": "NC(=O)c1cc[n+](Cc2ccc(C[n+]3ccc(/C=N/O)cc3)s2)cc1.[Cl-].[Cl-]", "method": "broth dilution", "measure": "EC50", "result": ">20 µg/mL"}
{"structure": "CC1CC(=O)N(c2ccc(Cl)cc2)C1=O", "method": "broth dilution / turbidity", "measure": "MIC", "strain or isolate": "CCC 117-2000", "result": "125 µg/mL"}
{"structure": "CC(C)S(=O)(=O)Nc1ccc(CN(C)CC(O)(Cn2cncn2)c2ccc(F)cc2F)cc1", "method": "resazurin", "measure": "MIC", "strain or isolate": "506", "result": "17.5 µg/mL"}
{"structure": "C[C@@H](N1CCN(Cc2cn(Cc3ccc(F)cc3)c3c(Cl)cccc23)CC1)[C@](O)(Cn1cncn1)c1ccc(F)cc1F", "method": "resazurin", "measure": "MIC80", "strain or isolate": "ATCC 6258", "result": "1 µg/mL"}
{"structure": "Cc1ccc(-n2cc(C(C)(C)O)nn2)cc1C", "method": "broth dilution", "measure": "inhibition", "strain or isolate": "URM 934", "dose": "2048 µg/mL", "result": "0%"}
{"structure": "CN(CC(=O)Nc1cc(Cl)ccc1Cl)CC(O)(Cn1cncn1)c1ccc(F)cc1F", "measure": "MIC80", "result": "0.0625 µg/mL"}
{"structure": "C[C@@H](N1CCN(Cc2cn(Cc3ccc(Cl)cc3Cl)c3ccccc23)CC1)[C@](O)(Cn1cncn1)c1ccc(F)cc1F", "method": "resazurin", "measure": "MIC80", "strain or isolate": "ATCC 6258", "result": "1 µg/mL"}
{"structure": "C[C@@H]1CC(=O)N(CCCCc2ccccc2)C1=O", "method": "broth dilution / turbidity", "measure": "MIC", "strain or isolate": "CCC 117-2000", "result": "62.5 µg/mL"}
{"structure": "COc1cc(/C=C2\\SC(=S)NC2=O)cc(OC)c1OCC(O)(Cn1cncn1)c1ccc(F)cc1F", "method": "broth dilution", "measure": "MIC50", "strain or isolate": "ATCC 6258", "result": "16 µg/mL"}
{"structure": "Cc1ccc(-c2c3c(N)c4c(nc3nc3c2c(C)nn3-c2ccccc2)CCCC4)cc1", "method": "broth dilution / absorbance", "measure": "MIC80", "strain or isolate": "CCC 117", "result": "15.6 µg/mL"}
{"structure": "NC(=O)c1cc[n+](CCCC[n+]2ccccc2/C=N/O)cc1.[Br-].[Br-]", "method": "broth dilution", "measure": "EC50", "result": ">20 µg/mL"}
{"structure": "CN(Cc1ccc(NS(=O)(=O)c2ccc([N+](=O)[O-])cc2)cc1)CC(O)(Cn1cncn1)c1ccc(F)cc1F", "method": "resazurin", "measure": "MIC", "strain or isolate": "506", "result": "15.3 µg/mL"}
{"structure": "NN(Cc1ccccc1)CC(O)(Cn1cncn1)c1ccc(F)cc1F", "measure": "MIC80", "strain or isolate": "ATCC 6528", "result": "0.5 µg/mL"}
{"structure": "COc1cc(/C=C2\\SC(=S)NC2=O)ccc1OCC(O)(Cn1cncn1)c1ccc(F)cc1F", "method": "broth dilution", "measure": "MIC50", "strain or isolate": "ATCC 6258", "result": "16 µg/mL"}
{"structure": "Clc1ccccc1C(c1ccccc1)(c1ccccc1)n1ccnc1", "measure": "MIC", "strain or isolate": "Clinical isolates", "conditions": "18 h", "result": "4 µg/mL"}
{"structure": "OC(CNCCCOc1ccccc1)(Cn1cncn1)c1ccc(F)cc1F", "measure": "EC80", "result": "<0.125 µg/mL"}
{"structure": "CCOc1ccc2nc3cc(N=C4NC(=O)/C(=C\\c5ccc([N+](=O)[O-])o5)S4)ccc3c(N)c2c1", "method": "broth dilution", "measure": "MFC", "result": "250 µg/mL"}
{"structure": "O=C(c1ccccc1)C(c1ccccc1)n1cncn1", "method": "broth dilution", "measure": "MFC", "result": ">256 µg/mL"}
{"structure": "CC(C)(O)c1cn(-c2cccc3ccccc23)nn1", "method": "broth dilution", "measure": "inhibition", "strain or isolate": "URM 109", "dose": "2048 µg/mL", "result": "0%"}
{"structure": "C[C@@H](N1CCN(Cc2cn(Cc3ccc(F)cc3)c3c(F)cccc23)CC1)[C@](O)(Cn1cncn1)c1ccc(F)cc1F", "method": "resazurin", "measure": "MIC80", "strain or isolate": "ATCC 6258", "result": "1 µg/mL"}
{"structure": "CC(C)C(NC(=O)C(N)Cc1ccccc1)C(=O)NC(CCCN=C(N)N)C(=O)O", "method": "broth dilution", "measure": "MFC", "strain or isolate": "ATCC 6258", "result": "685 µg/mL"}
{"structure": "COc1cc(NC(C)CCCNC(=O)CCC(NC(=O)[C@H](N)CCCCN)C(=O)O)c2nc(C(C)(C)C)ccc2c1", "method": "broth dilution", "measure": "EC50", "result": ">20 µg/mL"}
{"structure": "CN(CC(=O)Nc1ccc(F)cc1)CC(O)(Cn1cncn1)c1ccc(F)cc1F", "measure": "MIC80", "result": "64 µg/mL"}
{"structure": "CCC(C)c1ccc(Cn2cc(CN3CCN([C@H](C)[C@](O)(Cn4cncn4)c4ccc(F)cc4F)CC3)c3ccccc32)cc1", "method": "resazurin", "measure": "MIC80", "strain or isolate": "ATCC 6258", "result": "2 µg/mL"}

For reference, 3 entries again:

structure	method	measure	strain or isolate	dose	conditions	result
CN(CC(=O)Nc1ccc(Br)cc1)CC(O)(Cn1cncn1)c1ccc(F)cc1F	-	MIC80	-	-	-	16 µg/mL
CCCCCOc1ccc(-c2cc(-c3ccc(C(=O)N[C@H]4C[C@@H](O)[C@@H](O)NC(=O)[C@@H]5[C@@H](O)[C@@H](C)CN5C(=O)[C@H]([C@H](O)CC(N)=O)NC(=O)[C@H]([C@H](O)[C@@H](O)c5ccc(O)c(OS(=O)(=O)O)c5)NC(=O)[C@@H]5C[C@@H](O)CN5C(=O)[C@H]([C@@H](C)O)NC4=O)cc3)no2)cc1	broth dilution	MIC50	-	-	-	0.06 µg/mL
Cc1ccc(NC(=O)CN(C)CC(O)(Cn2cncn2)c2ccc(F)cc2F)c(C)c1	-	MIC80	-	-	-	4 µg/mL